Data set [1] relates to P. falciparum NF54. Kind of data set: In vitro microplate 3H-hypoxanthine incorporation assay against P. falciparum NF54. Type of data set: cell-based, Plasmodium falciparum. As to conditions: L-6 cytotoxicity versus P. falciparum NF54. The procedure: (§1) Compounds were tested for their activities against Plasmodium falciparum NF54 (sensitive to chloroquine) and Trypanosoma brucei rhodesiense STIB900, via serial dilution assays. Furthermore, selected compounds were tested against the K1 strain of Plasmodium falciparum (resistant against chloroquine, sulfadoxine and pyrimethamine). Their cytotoxicity was determined with rat skeletal myoblasts (L-6 cells).
(§2) In vitro activity against erythrocytic stages of P. falciparum was determined using a ^3H-hypoxanthine incorporation assay using the drug sensitive NF54 strain [27] or the chloroquine- and pyrimethamine-resistant K1 strain [28]. Compounds were dissolved in DMSO at 10 mg/mL and further diluted in medium before being added to parasite cultures incubated in RPMI 1640 medium without hypoxanthine, supplemented with HEPES (5.94 g/L), NaHCO3 (2.1 g/L), neomycin (100 U/mL), Albumax® (5 g/L) and washed human red cells A+ at 2.5% haematocrit (0.3% parasitaemia). Serial drug dilutions of eleven 3-fold dilution steps covering a range from 100 to 0.002 μg/mL were prepared. The 96-well plates were incubated in a humidified atmosphere at 37 °C; 4% CO2, 3% O2, 93% N2. After 48 h, 0.05 mL of ^3H-hypoxanthine (= 0.5 μCi) was added to each well of the plate. The plates were incubated for a further 24 h under the same conditions. The plates were then harvested with a Betaplate™ cell harvester (Wallac, Zurich, Switzerland), and the red blood cells transferred onto a glass fibre filter then washed with distilled water. The dried filters were inserted into a plastic foil with 10 mL of scintillation fluid, and counted in a Betaplate™ liquid scintillation counter (Wallac, Zurich, Switzerland). IC50 values were calculated from sigmoidal inhibition curves by linear regression using Microsoft Excel. Chloroquine (Sigma C6628) was used as control.

Data set [2] has as its system T. brucei rhodesiense STIB900. Kind of data set: In vitro microplate resazurin assay against T. brucei rhodesiense. Format: cell-based, Trypanosoma brucei rhodesiense. As to conditions: L-6 cytotoxicity versus T. b. rhodesiense. The procedure:
as §1
Minimum essential medium (50 µL) supplemented with 25 mM HEPES, 1g/L additional glucose, 1% MEM non-essential amino acids (100×), 0.2 mM 2-mercaptoethanol, 1mM Na-pyruvate and 15% heat-inactivated horse serum was added to each well of a 96-well microtiter plate. Serial drug dilutions of eleven 3-fold dilution steps covering a range from 100 to 0.002 μg/mL were prepared. Then 4 × 10^3 bloodstream forms of T. b. rhodesiense STIB 900 in 50 µL was added to each well and the plate incubated at 37 °C under a 5 % CO2 atmosphere for 70 h. Next, 10 µL resazurin solution (resazurin, 12.5 mg in 100 mL double-distilled water) was added to each well and incubation continued for a further 2–4 h. Then the plates were read with a Spectramax Gemini XS microplate fluorometer (Molecular Devices Cooperation, Sunnyvale, CA, USA) using an excitation wave length of 536 nm and an emission wave length of 588 nm. Data were analyzed with the graphic programme Softmax Pro (Molecular Devices Cooperation, Sunnyvale, CA, USA), which calculated IC50 values by linear regression and 4-parameter logistic regression from the sigmoidal dose inhibition curves. Melarsoprol (Arsobal Sanofi-Aventis, received from WHO) was used as control.
(The colour change of resazurin is a common sign of viable cells or microbes.)

Data set [3] deals with P. falciparum K1. Kind of data set: In vitro microplate 3H-hypoxanthine incorporation assay against P. falciparum K1. Format: cell-based, Plasmodium falciparum. As to conditions: L-6 cytotoxicity versus P. falciparum K1. On the procedure: as §1, §2

Where “and” joins values, the source holds several entries; their conditions need not be identical. Equal values may be shown once.

Turning to `Cc1cc(N2CCC3(N4CCCCC4)CC(c4ccccc4)C2C(c2ccccc2)C3)nc(N)n1` (racemic) [Compound 5, rac-4-[(7R,8R)-7,8-diphenyl-5-(piperidin-1-yl)-2-azabicyclo[3.2.2]nonan-2-yl]-6-methylpyrimidin-2-amine], in data set [1], the “S.I. = IC50 (Cyt.)/IC50 (P.f.NF54)” value is listed as 50.2. Further, the “S.I. = IC50 (Cyt.)/IC50 (T.b.r.)” value in data set [2] is 3.22.

Consider `Cc1cc(N2CCC3(N4CCCC4)CC(c4ccccc4)C2C(c2ccccc2)C3)nc(N)n1` (racemic) [Compound 6, rac-4-[(7R,8R)-7,8-diphenyl-5-(pyrrolidin-1-yl)-2-azabicyclo[3.2.2]nonan-2-yl]-6-methylpyrimidin-2-amine], for which the “S.I. = IC50 (Cyt.)/IC50 (P.f.NF54)” value in data set [1] is on record as 142.5. For the same compound, the “S.I. = IC50 (Cyt.)/IC50 (T.b.r.)” value in data set [2] is 62.90–158.4 and 77.89.

For the compound `Nc1cc(N2CCC3(N4CCCCC4)CC(c4ccccc4)C2C(c2ccccc2)C3)nc(N)n1` (racemic) [Compound 9, rac-6-[(7R,8R)-7,8-diphenyl-5-(piperidin-1-yl)-2-azabicyclo[3.2.2]nonan-2-yl]pyrimidine-2,4-diamine], the “S.I. = IC50 (Cyt.)/IC50 (P.f.NF54)” value in data set [1] was determined as 190.8. Moreover, in data set [2], the “S.I. = IC50 (Cyt.)/IC50 (T.b.r.)” value stood at 6.24. Besides, the “S.I. = IC50 (Cyt.)/IC50 (P.f.K1)” value in data set [3] was 103.6–155.6 and 103.6.

With `Nc1cc(N2CCC3(N4CCCC4)CC(c4ccccc4)C2C(c2ccccc2)C3)nc(N)n1` (racemic) [Compound 10, rac-6-[(7R,8R)-7,8-diphenyl-5-(pyrrolidin-1-yl)-2-azabicyclo[3.2.2]nonan-2-yl]pyrimidine-2,4-diamine], the “S.I. = IC50 (Cyt.)/IC50 (P.f.NF54)” value in data set [1] came to 142.5. Besides, the “S.I. = IC50 (Cyt.)/IC50 (T.b.r.)” value in data set [2] is 13.20. Further, the “S.I. = IC50 (Cyt.)/IC50 (P.f.K1)” value in data set [3] is given as 52.19.

Turning to `Cc1cc(N2CCC3(N4CCCCC4)C[C@H](c4ccccc4)C2[C@@H](c2ccccc2)C3)nc(Cl)n1` (racemic) [Compound 13, rac-(7R,8R)-2-(2-chloro-6-methylpyrimidin-4-yl)-7,8-diphenyl-5-(piperidin-1-yl)-2-azabicyclo[3.2.2]nonane], the “S.I. = IC50 (Cyt.)/IC50 (P.f.NF54)” value in data set [1] is 4.47. Also, the “S.I. = IC50 (Cyt.)/IC50 (T.b.r.)” value in data set [2] came to 2.00. Moreover, in data set [3], the “S.I. = IC50 (Cyt.)/IC50 (P.f.K1)” value was 5.45.

On to `Cc1cc(N2CCC3(N4CCCC4)C[C@H](c4ccccc4)C2[C@@H](c2ccccc2)C3)nc(Cl)n1` (racemic) [Compound 14, rac-(7R,8R)-2-(2-chloro-6-methylpyrimidin-4-yl)-7,8-diphenyl-5-(pyrrolidin-1-yl)-2-azabicyclo[3.2.2]nonane], for which the “S.I. = IC50 (Cyt.)/IC50 (P.f.NF54)” value in data set [1] worked out at 9.25. Moreover, the “S.I. = IC50 (Cyt.)/IC50 (T.b.r.)” value in data set [2] amounted to 5.86. In addition, the “S.I. = IC50 (Cyt.)/IC50 (P.f.K1)” value in data set [3] is recorded as 26.30.

Regarding `Cc1cc(N2CCC3(N4CCCCC4)C[C@H](c4ccccc4)C2[C@@H](c2ccccc2)C3)nc(N2CCCC2)n1` (racemic) [Compound 17, rac-(7R,8R)-2-[6-methyl-2-(pyrrolidin-1-yl)pyrimidin-4-yl]-7,8-diphenyl-5-(piperidin-1-yl)-2-azabicyclo[3.2.2]nonane], in data set [1], the “S.I. = IC50 (Cyt.)/IC50 (P.f.NF54)” value is listed as 37.65. Also, in data set [2], the “S.I. = IC50 (Cyt.)/IC50 (T.b.r.)” value amounted to 40.40.

`Cc1cc(N2CCC3(N4CCCC4)C[C@H](c4ccccc4)C2[C@@H](c2ccccc2)C3)nc(N2CCCC2)n1` (racemic) [Compound 18, rac-(7R,8R)-2-[6-methyl-2-(pyrrolidin-1-yl)pyrimidin-4-yl]-7,8-diphenyl-5-(pyrrolidin-1-yl)-2-azabicyclo[3.2.2]nonane]: the “S.I. = IC50 (Cyt.)/IC50 (P.f.NF54)” value in data set [1] worked out at 110.7. For the same compound, in data set [3], the “S.I. = IC50 (Cyt.)/IC50 (P.f.K1)” value worked out at 254.5.

Turning to `Cc1cc(N2CCC3(N4CCCCC4)C[C@H](c4ccccc4)C2[C@@H](c2ccccc2)C3)nc(N2CCCCC2)n1` (racemic) [Compound 21, rac-(7R,8R)-2-[6-methyl-2-(piperidin-1-yl)pyrimidin-4-yl]-7,8-diphenyl-5-(piperidin-1-yl)-2-azabicyclo[3.2.2]nonane], in data set [1], the “S.I. = IC50 (Cyt.)/IC50 (P.f.NF54)” value is recorded as 22.06. In addition, in data set [2], the “S.I. = IC50 (Cyt.)/IC50 (T.b.r.)” value is on record as 11.89.

In the case of `Cc1cc(N2CCC3(N4CCCC4)C[C@H](c4ccccc4)C2[C@@H](c2ccccc2)C3)nc(N2CCCCC2)n1` (racemic) [Compound 22, rac-(7R,8R)-2-[6-methyl-2-(piperidin-1-yl)pyrimidin-4-yl]-7,8-diphenyl-5-(pyrrolidin-1-yl)-2-azabicyclo[3.2.2]nonane], in data set [1], the “S.I. = IC50 (Cyt.)/IC50 (P.f.NF54)” value is recorded as 16.58. For the same compound, the “S.I. = IC50 (Cyt.)/IC50 (T.b.r.)” value in data set [2] is 62.90–158.4 and 62.90.

(Values after paper PMC9821907, “Synthesis and Antiprotozoal Activity of Azabicyclo-Nonane Pyrimidine Hybrids” (Molecules, 2022).)
